Measurements as given in patent US20240209092A1, “COMBINATION THERAPIES FOR TREATING CANCER” (ADAGENE INC., priority 2021, published 2024).

System: human PBMCs
Assay: SEA-stimulated human T cell activation in PBMC (IL-2 ELISA)
Assay type: cell-based
Conditions: PBMCs from one healthy donor, SEA 50 ng/mL, 4 days

B1: TY22404: activatable anti-CTLA4 fully human IgG1 antibody prodrug (SAFEbody); heavy chain SEQ ID NO:320, masked light chain SEQ ID NO:322 (antibody)
heavy: EVQLVESGGGLVQPGGSLRLSCAASGYSISSGYHWSWIRQAPGKGLEWLARIDWDDDKYYSTSLKSRLTISRDNSKNTLYLQLNSLRAEDTAVYYCARSYVYFDYWGQGTLVTVSSASTKGPSVFPLAPSSKSTSGGTAALGCLVKDYFPEPVTVSWNSGALTSGVHTFPAVLQSSGLYSLSSVVTVPSSSLGTQTYICNVNHKPSNTKVDKKV[gap - human IgG1 Fc]
light: EVGSYPNPSSDCVPYYYACAYSGRSAGGGGTPLGLAGSGGSDIQLTQSPSSLSASVGDRVTITCRASQSVRGRFLAWYQQKPGKAPKLLIYDASNRATGIPSRFSGSGSGTDFTLTISSLQPEDFATYYCQQSSSWPPTFGQGTKVEIKRTVAAPSVFIFPPSDEQLKSGTASVVCLLNNFYPREAKVQWKVDNALQSGNSQESVTEQDSKDSTYSLSSTLTLSKADYEKHKVYACEVTHQGLSSPVTKSFNRGEC
SEA peptide-stimulated IL-2 cytokine release: no such activity
